Source: PubChem BioAssay AID624099 (ICCB-Longwood, 2012)
The deposit covers about 21,000 reagents; this is an unselected part. Over the whole deposit, 497 (2.4%) are marked active. 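Higher z means weaker E2 silencing; only reporter increases were scored, and knock-downs that hurt cell survival may mask genuine repressor factors.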

- Aim: 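Human genes that papillomavirus E2 requires to repress the HPV18 LCR promoter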 (primary screen)
- Cells: human C33A cervical carcinoma cells (HPV-negative) stably expressing BPV1 E2 and an HPV18 LCR luciferase reporter
- Knock-down reagent: siRNA pool against human genes, 40 nM
- Time to read-out: 72 h
- Measured: 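HPV18 LCR reporter light per well, converted to plate-wise z-scores that exclude control wells, and averaged over triplicate plates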
- Scale: mean z-score and z-score: higher = stronger reporter signal, weaker E2 silencing
- Hit rule: 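Mean z ≥ 2 together with z ≥ 2 in two or more of the three replicates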

{"target gene": "CAV2", "mean z-score": 0.28, "z-score, replicate A": 0.21, "z-score, replicate B": 0.32, "z-score, replicate C": 0.3, "Outcome": "inactive"}
{"target gene": "LCE2A", "mean z-score": -0.29, "z-score, replicate A": -0.38, "z-score, replicate B": -0.49, "z-score, replicate C": 0.01, "Outcome": "inactive"}
{"target gene": "POLR2M", "mean z-score": -0.06, "z-score, replicate A": -0.02, "z-score, replicate B": -0.1, "z-score, replicate C": -0.05, "Outcome": "inactive"}
{"target gene": "LOC401605 (retired record)", "mean z-score": -0.15, "z-score, replicate A": -0.09, "z-score, replicate B": 0.07, "z-score, replicate C": -0.44, "Outcome": "inactive"}
{"target gene": "CNTNAP4", "mean z-score": 2.1, "z-score, replicate A": 2.09, "z-score, replicate B": 1.98, "z-score, replicate C": 2.22, "Outcome": "active"}
{"target gene": "HDHD3", "mean z-score": 0.78, "z-score, replicate A": 1.03, "z-score, replicate B": 0.51, "z-score, replicate C": 0.79, "Outcome": "inactive"}
{"target gene": "PROK2", "mean z-score": -0.69, "z-score, replicate A": -0.3, "z-score, replicate B": -0.38, "z-score, replicate C": -1.38, "Outcome": "inactive"}
{"target gene": "USP51", "mean z-score": -2.67, "z-score, replicate A": -2.81, "z-score, replicate B": -2.52, "z-score, replicate C": -2.69, "Outcome": "inactive"}
{"target gene": "CAMTA2", "mean z-score": -1.58, "z-score, replicate A": -1.62, "z-score, replicate B": -1.63, "z-score, replicate C": -1.49, "Outcome": "inactive"}
{"target gene": "MEP1A", "mean z-score": 0.35, "z-score, replicate A": 0.79, "z-score, replicate B": 0.32, "z-score, replicate C": -0.07, "Outcome": "inactive"}
{"target gene": "ACP4", "mean z-score": -0.16, "z-score, replicate A": 0, "z-score, replicate B": -0.32, "z-score, replicate C": -0.17, "Outcome": "inactive"}
{"target gene": "FGFBP1", "mean z-score": 0.69, "z-score, replicate A": 1.42, "z-score, replicate B": 0.18, "z-score, replicate C": 0.46, "Outcome": "inactive"}
{"target gene": "TBC1D28", "mean z-score": 0.57, "z-score, replicate A": 0.22, "z-score, replicate B": 0.53, "z-score, replicate C": 0.95, "Outcome": "inactive"}

2 consecutive entries from above, quoted:
{"target gene": "LCE2A", "mean z-score": -0.29, "z-score, replicate A": -0.38, "z-score, replicate B": -0.49, "z-score, replicate C": 0.01, "Outcome": "inactive"}
{"target gene": "POLR2M", "mean z-score": -0.06, "z-score, replicate A": -0.02, "z-score, replicate B": -0.1, "z-score, replicate C": -0.05, "Outcome": "inactive"}

The listing continues:
{"target gene": "VPREB1", "mean z-score": 0.61, "z-score, replicate A": 0.66, "z-score, replicate B": 0.69, "z-score, replicate C": 0.49, "Outcome": "inactive"}
{"target gene": "STRN", "mean z-score": 1.56, "z-score, replicate A": 1.63, "z-score, replicate B": 1.58, "z-score, replicate C": 1.46, "Outcome": "inactive"}
{"target gene": "ST3GAL4", "mean z-score": 0.69, "z-score, replicate A": 0.47, "z-score, replicate B": 0.69, "z-score, replicate C": 0.92, "Outcome": "inactive"}
{"target gene": "HTATSF1", "mean z-score": -0.64, "z-score, replicate A": -1.21, "z-score, replicate B": -0.49, "z-score, replicate C": -0.23, "Outcome": "inactive"}
{"target gene": "LOC390511 (retired record)", "mean z-score": -0.35, "z-score, replicate A": -0.42, "z-score, replicate B": 0.05, "z-score, replicate C": -0.67, "Outcome": "inactive"}
{"target gene": "PLAC4", "mean z-score": 0.62, "z-score, replicate A": 1.59, "z-score, replicate B": -0.28, "z-score, replicate C": 0.56, "Outcome": "inactive"}
{"target gene": "CCL20", "mean z-score": 0.72, "z-score, replicate A": 0.68, "z-score, replicate B": 0.7, "z-score, replicate C": 0.76, "Outcome": "inactive"}
{"target gene": "NBN", "mean z-score": 1.17, "z-score, replicate A": 1.32, "z-score, replicate B": 0.77, "z-score, replicate C": 1.42, "Outcome": "inactive"}
